PubChem BioAssay AID624099, ICCB-Longwood – 2012

- Aim: 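Knock-downs relieving repression by E2 of an HPV18 LCR luciferase reporter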 (primary screen)
- Cell system: human C33A cervical carcinoma cells (HPV-negative) stably expressing BPV1 E2 and an HPV18 LCR luciferase reporter
- Reagent: siRNA pool against human genes, 40 nM
- Duration: 72 h
- Measurement: 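Per-well luciferase luminescence, z-scored on each plate against the plate mean and SD with control wells left out, then averaged across three replicate plates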
- Reading the numbers: mean z-score and z-score: higher = stronger reporter signal, weaker E2 silencing
- Active means: 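Hit if mean z-score reaches 2 and two or more of three replicate z-scores also reach 2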
This is a random part of about 21,000 deposited reagents. Over the whole deposit, 497 (2.4%) were called active. 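Higher z means weaker E2 silencing; only reporter increases were scored, and knock-downs that hurt cell survival may mask genuine repressor factors.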 Reagents against one gene are numbered here. Reagent sequences are not shown.

| gene | pool no. | mean z-score | z-score, replicate A | z-score, replicate B | z-score, replicate C | call |
| --- | --- | --- | --- | --- | --- | --- |
| LOC342460 (retired record) (GeneID 342460) | 1 | -0.74 | -0.66 | -0.78 | -0.78 | inactive |
| LINC03010 (GeneID 100286906) | 1 | 0.63 | 0.49 | 0.59 | 0.81 | inactive |
| LINC03010 (GeneID 100286906) | 2 | 1.1 | 1.04 | 1.26 | 0.99 | inactive |
| DHH (GeneID 50846) | 1 | 0.08 | 0.61 | -0.12 | -0.25 | inactive |
| LCLAT1 (GeneID 253558) | 1 | 0.29 | 0.47 | 0.35 | 0.05 | inactive |
| IFNL1 (GeneID 282618) | 1 | 1.73 | 2.45 | 1.44 | 1.31 | inactive |
| PSME3 (GeneID 10197) | 1 | 0.42 | 0.59 | 0.28 | 0.39 | inactive |
| MRPS14 (GeneID 63931) | 1 | -0.6 | -0.57 | -0.53 | -0.68 | inactive |
| CHAMP1 (GeneID 283489) | 1 | -0.14 | -0.35 | -0.34 | 0.28 | inactive |
| BKGD (GeneID 28970) | 1 | -0.45 | -0.85 | -0.48 | -0.02 | inactive |
| LRP8 (GeneID 7804) | 1 | -1.39 | -1.49 | -1.25 | -1.43 | inactive |
| OTUB2 (GeneID 78990) | 1 | -0.68 | -0.79 | -0.7 | -0.56 | inactive |
| GP6 (GeneID 51206) | 1 | -0.07 | 0.16 | -0.11 | -0.25 | inactive |
| LOC151443 (retired record) (GeneID 151443) | 1 | 0.26 | 0 | -0.05 | 0.85 | inactive |
| BTBD19 (GeneID 149478) | 1 | 0.35 | -0.15 | 0.82 | 0.38 | inactive |
| ALG10 (GeneID 84920) | 1 | 0.03 | -0.1 | 0.09 | 0.11 | inactive |
| SEC31B (GeneID 25956) | 1 | -1.01 | -0.93 | -0.87 | -1.24 | inactive |

Look-ups from the list.
Result of IFNL1 (GeneID 282618) under “mean z-score”: 1.73
Under “z-score, replicate C”, BTBD19 (GeneID 149478) has 0.38
For “z-score, replicate B”, SEC31B (GeneID 25956) reads -0.87

The list goes on:
| gene | pool no. | mean z-score | z-score, replicate A | z-score, replicate B | z-score, replicate C | call |
| --- | --- | --- | --- | --- | --- | --- |
| CCBE1 (GeneID 147372) | 1 | 0.13 | 0.3 | -0.42 | 0.52 | inactive |
| TNIK (GeneID 23043) | 1 | -0.94 | -0.91 | -0.81 | -1.1 | inactive |
| NHLH2 (GeneID 4808) | 1 | 0.15 | 0.24 | -0.13 | 0.34 | inactive |
| DOP1B (GeneID 9980) | 1 | -1.51 | -1.26 | -1.84 | -1.42 | inactive |
| ITGB7 (GeneID 3695) | 1 | -0.96 | -0.66 | -1.2 | -1.02 | inactive |
| SLC25A37 (GeneID 51312) | 1 | 0.08 | 0.27 | -0.09 | 0.05 | inactive |
| PLGRKT (GeneID 55848) | 1 | 1.44 | 1.42 | 1.29 | 1.61 | inactive |
| AP3B2 (GeneID 8120) | 1 | -0.48 | -0.65 | -0.52 | -0.27 | inactive |
| GOLPH3L (GeneID 55204) | 1 | -0.52 | 0.51 | -0.26 | -1.82 | inactive |
| CDH11 (GeneID 1009) | 1 | 0.18 | 0.07 | 0.19 | 0.28 | inactive |
| EXOC2 (GeneID 55770) | 1 | -1.44 | -1.52 | -1.14 | -1.68 | inactive |
| LOC402633 (retired record) (GeneID 402633) | 1 | -0.32 | -0.5 | -0.61 | 0.14 | inactive |
| SDHAP1 (GeneID 255812) | 1 | 0.06 | 0.03 | -0.04 | 0.2 | inactive |
| UBE2S (GeneID 27338) | 1 | -1.66 | -1.71 | -1.69 | -1.59 | inactive |
| LOC389983 (retired record) (GeneID 389983) | 1 | -0.74 | -0.91 | -0.48 | -0.83 | inactive |
| DBI (GeneID 1622) | 1 | 0.44 | 0.25 | 0.69 | 0.37 | inactive |
| DDX51 (GeneID 317781) | 1 | -0.74 | -0.63 | -1.32 | -0.25 | inactive |
| LOC166994 (retired record) (GeneID 166994) | 1 | -0.54 | -0.18 | -0.83 | -0.6 | inactive |
| FGF23 (GeneID 8074) | 1 | -0.78 | -0.82 | -0.83 | -0.68 | inactive |
| MAP6D1 (GeneID 79929) | 1 | -0.15 | -0.59 | -0.25 | 0.39 | inactive |
| FOXD4L4 (GeneID 349334) | 1 | -0.1 | -0.06 | 0.03 | -0.26 | inactive |
| TRABD (GeneID 80305) | 1 | 0.06 | 0.05 | -0.13 | 0.26 | inactive |
